Source: PMC6222871, “Suppression of Hepatitis C Virus Genome Replication and Particle Production by a Novel Diacylglycerol Acyltransferases Inhibitor” (Molecules : A Journal of Synthetic Chemistry and Natural …, 2018)

Tested on: luciferase-linked genotype 2a HCV RNAs
Assay type: cell-based, hepatitis C virus
Details: CC50 divided by EC50
Method: To order to study impacts of DGAT inhibitors on HCV genome replication independently of the particle production, we decided to examine effects of these twelve DGAT inhibitors on the levels of viral RNA genome and cell viability in parallel. […] Then, we treated them with an increasing concentration of each DGAT inhibitor. Then, luciferase and MTT-based cell viability assays were performed to determine EC50 and CC50 (cytotoxic concentration required to kill 50% of treated cells) values, respectively.
Cell viability was measured with EZ-CYTOX (10% tetrazolium salt; Dogen, Gyeonggi-do, Korea) as described previously. Anti-HCV replication analysis using a luciferase assay was conducted as previously described.

Compound | Therapeutic index (TI)
CC(C)CCn1cc(/C=C/C(=O)N(NC(=O)c2cccc(F)c2)C(C)C)c2ccccc21 [8h] | >1.5
O=C(Nc1ccccc1)c1ccc2nc(COc3ccc(C45CC6CC(CC(C6)C4)C5)cc3)[nH]c2c1 [10f] | >1.0
O=C(NCc1ccccn1)c1ccc2nc(COc3ccc(C45CC6CC(CC(C6)C4)C5)cc3)[nH]c2c1 [10i] | 4.4
O=C(Nc1ccccc1)Nc1ccc(-c2ccc(C(=O)[C@@H]3CCC[C@H]3C(=O)O)cc2)cc1 [A922500, reference compound] | 1.4
O=C(c1ccc2nc(COc3ccc(C45CC6CC(CC(C6)C4)C5)cc3)[nH]c2c1)N1CCCCC1 [10e] | >1.0
CC(C)(C)OC(=O)n1cc(/C=C/C(=O)Nc2cccc(C(=O)NCc3ccco3)c2)c2ccccc21 [5h] | 2.2
CC(C)=CCn1cc(/C=C/C(=O)N(NC(=O)c2cccc(F)c2)C(C)C)c2ccccc21 [8u] | >1.0
Cc1ccc(CNC(=O)c2cccc(NC(=O)/C=C/c3cn(C(=O)OC(C)(C)C)c4ccccc34)c2)o1 [5j] | 3.0
CC(C)CCn1cc(/C=C/C(=O)N(NC(=O)c2ccc(F)cc2)C(C)C)c2ccccc21 [8i] | >2.0
CC(C)(C)OC(=O)n1cc(/C=C/C(=O)Nc2cccc(C(=O)N3CCCC3)c2)c2ccccc21 [5c] | >1.0
CC(C)NC(=O)c1cccc(NC(=O)/C=C/c2cn(C(=O)OC(C)(C)C)c3ccccc23)c1 [5a] | 1.9
O=C(NCc1ccccc1)c1ccc2nc(COc3ccc(C45CC6CC(CC(C6)C4)C5)cc3)[nH]c2c1 [10h] | >1.3
